PMC10304930 (Molecules, 2023)

Tests used:
[1] = target: the molecule itself; test: cell-based or functional assay
[2] = target: the molecule itself; test: SEC; […]; 40 mM Tris-HCl, 100 mM NaCl, 1 mM DTT, pH 8.0; 0.5 mL/min; […]

B1: tagged main protease from SARS-CoV-2 with N-terminal Met-Ala-Ser and C-terminal Leu-Glu-6×His (enzyme)
chain: not shown
kcat/Km, FRET-based cleavage assay (Dabcyl/Edans peptide substrate) [1]: 67.5 M⁻¹ s⁻¹
stoichiometry N [2]: 2
